Results of unrelated studies side by side (data: NIAID ChemDB).

Shared fields: growth or infection tests; organism: HIV-1; method: cytopathic effect / XTT; read-out: EC50

ECn is the concentration giving n% inhibition of infection, replication or growth. Blank or dashed fields: not listed here. Conditions beyond the fields shown may differ between rows.

smiles	cells	strain or isolate	mutations	result
C=CCO/N=C/c1cc(NC(=S)c2ccoc2C)ccc1Cl	CEM + CEM-SS	NL4-3	RT-V108I	0.1 µM
O=C(N[C@@H](Cc1ccccc1)C(=O)O)c1ccccc1SSc1ccccc1C(=O)N[C@@H](Cc1ccccc1)C(=O)O	CEM	IIIB	-	>100 µM
COc1ccccc1C(=O)Nc1ccc(Cl)c(C(=O)OC(C)C)c1	CEM + CEM-SS	IIIB	-	1.3 µM
CCCCOC[C@H](NC(=O)c1ccccc1SSc1ccccc1C(=O)N[C@@H](COCCCC)C(=O)O)C(=O)O	CEM	IIIB	-	>100 µM
Cc1occc1C(=S)Nc1ccc(Cl)c(/C=N/OC(C)(C)C)c1	CEM + CEM-SS	NL4-3	RT-L100I	2.2 µM
CN1N=C(N)c2cn([C@@H]3O[C@H](COP(=O)(O)O)[C@@H](O)[C@H]3O)c3ncnc1c23	CEM + CEM-SS	ED	-	>2.8 µM
CCCc1cc(=O)oc2c3c(c4c(c12)OC(C)(C)CC4)O[C@H](C)[C@@H](C)C3=O	-	-	RT-K101E	26.4 µM
CN(C)C1=C(C#N)/C(=C2/C(C#N)=C(N(C)C)N(c3ccc([N+](=O)[O-])cc3)c3c2n(C)c2ccccc32)c2c(c3ccccc3n2C)N1c1ccc([N+](=O)[O-])cc1	CEM + CEM-SS	Diphenyl sulfone-resistant (RT-Y181I)	RT-Y181I	0.5 µM
O=C(O)CC[C@@H](NC(=O)c1ccccc1SSc1ccccc1C(=O)N[C@H](CCC(=O)O)C1CCCCC1)C1CCCCC1	CEM	IIIB	-	7.8 µM
CC(C)=CCOc1cc(NC(=S)c2ccsc2C)ccc1Cl	CEM + CEM-SS	NL4-3 (RT V108I)	RT-V108I	0.006 µM
Cc1occc1C(=S)Nc1ccc(Cl)c(C(=O)OCC(C)C)c1	CEM + CEM-SS	IIIB	-	0.07 µM
O=C(O)[C@@H]1CCCCN1C(=O)c1ccccc1SSc1ccccc1C(=O)N1CCCC[C@H]1C(=O)O	CEM	IIIB	-	>100 µM
Cc1occc1C(=S)Nc1ccc(Cl)c(C(=O)OC(C)C)c1	CEM + CEM-SS	NL4-3	RT-A98G	0.03 µM
CCCc1cc(=O)oc2c3c(c4c(c12)OC(C)(C)CC4)O[C@@H](C)[C@H](C)[C@@H]3O	CEMx174 + CEM	IIIB	-	0.8 µM
CC=CCOc1cc(NC(=S)c2ccoc2C)ccc1OC	CEM + CEM-SS	IIIB	-	0.01 µM
O=C(NC1(C(=O)O)CCCCC1)c1ccccc1SSc1ccccc1C(=O)NC1(C(=O)O)CCCCC1	CEM	IIIB	-	6.9 µM
CC(C)=CCOc1cc(NC(=S)c2ccoc2C)ccc1Cl	PBMC	WEJO	-	<0.007 µM
CC(C)OC(=S)Nc1ccc(Cl)c(/C=N/OC(C)(C)C)c1	CEM + CEM-SS	RF	-	0.008 µM

The first 2 rows once more:

smiles,cells,strain or isolate,mutations,result
C=CCO/N=C/c1cc(NC(=S)c2ccoc2C)ccc1Cl,CEM + CEM-SS,NL4-3,RT-V108I,0.1 µM
O=C(N[C@@H](Cc1ccccc1)C(=O)O)c1ccccc1SSc1ccccc1C(=O)N[C@@H](Cc1ccccc1)C(=O)O,CEM,IIIB,-,>100 µM